From patent US20200207841A1 (MIT, published 2020)

Key:
EDIII-DV2 [1] = biological target: T1, EDIII-DV2 (Dengue virus serotype 2 (DV2), UniProt P14337 581-673); test: competition ELISA, affinity in solution at equilibrium
T1 construct: also called EDIII of DV2; EDIII-DVII
T1 chain: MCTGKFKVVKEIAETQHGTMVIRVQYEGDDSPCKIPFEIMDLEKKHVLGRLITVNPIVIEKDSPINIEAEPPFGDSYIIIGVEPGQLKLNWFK

EDIII-DV2 [2] = biological target: T1, EDIII-DV2; test: SPR (Biacore 3000): antibody captured on anti-human IgG Fc, EDIII as analyte

B1: VH_G27P (antibody, V domains shown)
VH: VKLLEQSGAELVKPGASVRLSCTASPFNIKDTYMSWVKQRPEQGLEWIGRIDPENGDTKYDPKFQGKATITADTSSNTAYLHLSSLTSGDTAVYYCSRGWEGFAYWGQGTLVTVSA
VL: ELVMTQTPASLAVSLGQRATISCRASENVDKYGNSFMHWYQQKAGQPPKLLIYRASELQWGIPARFSGSGSRTDFTLTINPVEADDVATYFCQRSNEVPWTFGGGTKLEIK
notes: also called 4E5-G27P; copies: 2 + 2
Question: How did the Kd (EDIII-DV2 [1]) turn out when B1 was run?
Answer: Its Kd is 300 pM.

B2: VH_A25_del (antibody, V domains shown)
VH: VKLLEQSGAELVKPGASVRLSCTSGFNIKDTYMSWVKQRPEQGLEWIGRIDPENGDTKYDPKFQGKATITADTSSNTAYLHLSSLTSGDTAVYYCSRGWEGFAYWGQGTLVTVSA
VL: B1 VL
notes: also called 4E5-del-25; copies: 2 + 2
Question: For B2, which Kd (EDIII-DV2 [2]) is on record?
Answer: Its Kd is 66.4 pM.

B3: VH_G27A (antibody, V domains shown)
VH: B1 VH with P26A
VL: ELVMTQTPASLAVSLGQRATISCRASENVDKYGNSFMHWYQQKAGQPPKLLIYRASELQWGIPARFSGSGSRTDFTLTINPVEADDVATYFCQRSNEVPWTFGGGTKLEIKR
Question: How did the koff (EDIII-DV2 [2]) turn out when B3 was run?
Answer: Its koff is 0.000419 s⁻¹.

Positions count from the first letter of the chain named. Names and notes keep the numbering of the source.
